Only a part of the results on these compounds is given; other tests are left out.
Columns and labels:
E. coli [1] = settings: silicone coating with NO donor and 1% AA as reducing agent; TSB, 37° C., 12-hour period
S. aureus = assay: Bacterial growth on agar containing SNP, count at 24 hours; settings: 24 hours culture
Procedure: (§1) Bacterial growth on agar: 4 grams TSA was dissolved in distilled water, and autoclaved at 121° C. for 15 minutes. When the agar cooled to 50° C., 15 ml agar was placed into each tube, and equal amounts of bacteria were added to each. Then the agar and bacteria mixture was cast on culture dishes. The dishes were placed into an incubator @ 37° C. The clone number was counted at 24 hours.
(§2) Nitric oxide release from SNP inhibits bacterial growth on agar. Agar containing different concentrations of SNP was used to test the effects of NO release from SNP on bacteria growth. Both S. aureus and E. coli were tested. After 24 hours culture, bacteria number were counted. No bacteria were found in the dishes containing 5% and 10% SNP. Bacterial numbers in dishes of control and 1% SNP were counted. […] The results also support the use of matrices that are less hydrophobic than silicone.

E. coli [2] = assay: as above; settings: 24 hours culture
Procedure: as §1, §2

Substance: Sodium nitroprusside
- growth of bacteria (E. coli) with coated catheter segments (E. coli [1]): inhibits growth of bacteria
- S. aureus growth on agar (S. aureus; 1% SNP in agar): inhibits both strains of bacteria, significantly
- S. aureus growth on agar (S. aureus; 5% SNP in agar): kill S. aureus and E. coli completely
- S. aureus growth on agar (S. aureus; 10% SNP in agar): kill S. aureus and E. coli completely
- E. coli growth on agar (E. coli [2]; 1% SNP in agar): inhibits both strains of bacteria, significantly
- E. coli growth on agar (E. coli [2]; 5% SNP in agar): kill S. aureus and E. coli completely
- E. coli growth on agar (E. coli [2]; 10% SNP in agar): kill S. aureus and E. coli completely

Source: patent US20030039697A1, “Matrices containing nitric oxide donors and reducing agents and their use” (priority 2002, published 2003)
